The target of this experiment is His6-tagged vaccinia virus D13 D513G (vaccinia virus, Western Reserve strain). Briefly: crystal structure.

Our source for the stoichiometry N values is PMC3169552, “Membrane Remodeling by the Double-Barrel Scaffolding Protein of Poxvirus” (2011).

On to “His6-tagged vaccinia virus D13 D513G (natural protein)”, for which the stoichiometry N (as a rule, the number of molecules, sites or subunits per partner or assembly) was determined as 3.
